Measured data: PubChem BioAssay AID624099 (ICCB-Longwood, 2012)
Assay: 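Knock-downs relieving repression by E2 of an HPV18 LCR luciferase reporter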 (primary screen). System: human C33A cervical carcinoma cells (HPV-negative) stably expressing BPV1 E2 and an HPV18 LCR luciferase reporter. Knock-down reagent: siRNA pool against human genes, 40 nM. Time to read-out: 72 h. Measured: 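HPV18 LCR reporter light per well, converted to plate-wise z-scores that exclude control wells, and averaged over triplicate plates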. Direction: mean z-score and z-score: higher = stronger reporter signal, weaker E2 silencing. Active means: 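Hit if mean z-score reaches 2 and two or more of three replicate z-scores also reach 2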.
In all, the deposit lists about 21,000 reagents; below is a random part of them. 497 of all reagents (2.4%) count as active. 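Higher z means weaker E2 silencing; only reporter increases were scored, and knock-downs that hurt cell survival may mask genuine repressor factors.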 The numbers tell different reagents against one gene apart. No sequences are given here.

The opening 3 entries, to show the layout:
LCOR (ligand dependent nuclear receptor corepressor) #1 | mean z-score: -0.7; z-score, replicate A: -0.78; z-score, replicate B: -0.59; z-score, replicate C: -0.74; outcome: inactive
LCOR (ligand dependent nuclear receptor corepressor) #2 | mean z-score: 0.28; z-score, replicate A: 0.1; z-score, replicate B: 0.42; z-score, replicate C: 0.31; outcome: inactive
GOLGA8A (golgin A8 family member A) | mean z-score: 0.43; z-score, replicate A: 0.58; z-score, replicate B: 0.5; z-score, replicate C: 0.23; outcome: inactive

The list itself, from the start:
LCOR (ligand dependent nuclear receptor corepressor) #1 | mean z-score: -0.7; z-score, replicate A: -0.78; z-score, replicate B: -0.59; z-score, replicate C: -0.74; outcome: inactive
LCOR (ligand dependent nuclear receptor corepressor) #2 | mean z-score: 0.28; z-score, replicate A: 0.1; z-score, replicate B: 0.42; z-score, replicate C: 0.31; outcome: inactive
GOLGA8A (golgin A8 family member A) | mean z-score: 0.43; z-score, replicate A: 0.58; z-score, replicate B: 0.5; z-score, replicate C: 0.23; outcome: inactive
ATXN8OS (ATXN8 opposite strand lncRNA) | mean z-score: -0.06; z-score, replicate A: -0.35; z-score, replicate B: -0.15; z-score, replicate C: 0.32; outcome: inactive
ZNF174 (zinc finger protein 174) | mean z-score: -0.66; z-score, replicate A: -0.6; z-score, replicate B: -0.76; z-score, replicate C: -0.61; outcome: inactive
MYOD1 (myogenic differentiation 1) | mean z-score: -0.81; z-score, replicate A: -0.67; z-score, replicate B: -0.7; z-score, replicate C: -1.04; outcome: inactive
C1orf122 (chromosome 1 open reading frame 122) | mean z-score: 1.43; z-score, replicate A: 1.55; z-score, replicate B: 1.1; z-score, replicate C: 1.66; outcome: inactive
MASP1 (MBL associated serine protease 1) | mean z-score: -0.33; z-score, replicate A: -0.26; z-score, replicate B: -0.19; z-score, replicate C: -0.54; outcome: inactive
LOC340765 (retired record) | mean z-score: 0.63; z-score, replicate A: 0.09; z-score, replicate B: 0.8; z-score, replicate C: 1; outcome: inactive
RAB11FIP3 (RAB11 family interacting protein 3) | mean z-score: 0.48; z-score, replicate A: 0.4; z-score, replicate B: 0.43; z-score, replicate C: 0.61; outcome: inactive
FUT8 (fucosyltransferase 8) | mean z-score: -0.09; z-score, replicate A: -0.41; z-score, replicate B: -0.25; z-score, replicate C: 0.4; outcome: inactive
LOC286408 (retired record) | mean z-score: -1.16; z-score, replicate A: -1.28; z-score, replicate B: -1.06; z-score, replicate C: -1.13; outcome: inactive
CISH (cytokine inducible SH2 containing protein) | mean z-score: 0.07; z-score, replicate A: 0.19; z-score, replicate B: 0.17; z-score, replicate C: -0.14; outcome: inactive
DSEL (dermatan sulfate epimerase like) | mean z-score: -0.13; z-score, replicate A: -0.2; z-score, replicate B: -0.17; z-score, replicate C: -0.02; outcome: inactive
CYTH3 (cytohesin 3) | mean z-score: 0.99; z-score, replicate A: 1.05; z-score, replicate B: 1.09; z-score, replicate C: 0.83; outcome: inactive
ADM (adrenomedullin) | mean z-score: -1.5; z-score, replicate A: -1.45; z-score, replicate B: -1.63; z-score, replicate C: -1.41; outcome: inactive
ZNF660 (zinc finger protein 660) | mean z-score: -1.38; z-score, replicate A: -1.55; z-score, replicate B: -1.11; z-score, replicate C: -1.5; outcome: inactive
ASPA (aspartoacylase) | mean z-score: -0.51; z-score, replicate A: -0.52; z-score, replicate B: -0.7; z-score, replicate C: -0.29; outcome: inactive
MGME1 (mitochondrial genome maintenance exonuclease 1) | mean z-score: -0.08; z-score, replicate A: 0.2; z-score, replicate B: -0.34; z-score, replicate C: -0.1; outcome: inactive
GRB14 (growth factor receptor bound protein 14) | mean z-score: -0.1; z-score, replicate A: -0.13; z-score, replicate B: -0.13; z-score, replicate C: -0.03; outcome: inactive
FAM43A (family with sequence similarity 43 member A) | mean z-score: -0.46; z-score, replicate A: -0.67; z-score, replicate B: -0.51; z-score, replicate C: -0.2; outcome: inactive
BTF3P10 (basic transcription factor 3 pseudogene 10) | mean z-score: 0.05; z-score, replicate A: 0.37; z-score, replicate B: 0.04; z-score, replicate C: -0.27; outcome: inactive
PIBF1 (progesterone immunomodulatory binding factor 1) | mean z-score: 0.97; z-score, replicate A: 0.96; z-score, replicate B: 1.08; z-score, replicate C: 0.86; outcome: inactive
SDHC (succinate dehydrogenase complex subunit C) | mean z-score: 0.08; z-score, replicate A: 0.15; z-score, replicate B: 0.39; z-score, replicate C: -0.29; outcome: inactive
MARVELD1 (MARVEL domain containing 1) | mean z-score: 0.37; z-score, replicate A: 0.34; z-score, replicate B: 0.45; z-score, replicate C: 0.33; outcome: inactive
LOC149329 (retired record) | mean z-score: 0.26; z-score, replicate A: -0.08; z-score, replicate B: 0.64; z-score, replicate C: 0.22; outcome: inactive
DHRS7 (dehydrogenase/reductase 7) | mean z-score: -0.17; z-score, replicate A: -0.27; z-score, replicate B: -0.04; z-score, replicate C: -0.21; outcome: inactive
